A mixed list of measured activities; the numbers were collected in NIAID ChemDB.

Common to all: whole-cell or culture tests; agent: Mycobacterium tuberculosis

MIC bound comes from a single tested concentration. MIC50, MIC90 and the like: level of inhibition, or share of isolates inhibited. Percent inhibition refers to the dose given; in toxicity tests it is the harm to the cells. An empty or dashed field is not shown. Conditions beyond the fields shown may differ between rows. ECn is the concentration giving n% inhibition of infection, replication or growth.

SMILES,method,cell line,endpoint,mutations,strain or isolate,dose,value
CC1=CCC([N+](=O)[O-])C(c2ccccc2)C1,,,MIC,,H37Rv,,50 µg/mL
CCCCCCCCCOc1ccccc1NC(=O)OCCN(C)C,,,MIC,,My 331/88,,8 µM
CC(C)(O)CC[C@@H](O)[C@](C)(O)[C@H]1CC[C@@]2(O)C3=CC(=O)[C@@H]4C[C@@H](O)[C@@H](O)C[C@]4(C)[C@H]3CC[C@]12C,broth dilution,,MIC90,,,,14.4 µg/mL
COc1ccc(/C=C2/NC(=S)NC2=O)c(OC)c1,BACTEC,,inhibition,,H37Rv,6.25 µg/mL,88%
Cc1cn2c(C(=O)NCc3cccc(F)c3)c(C)nc2s1,resazurin / fluorescence,,MIC,,H37Rv,,<0.195 µM
CCOC(=O)c1ccc(NC(=O)CCC(=O)O)cc1O,,,MIC,,H37Rv,,>20 µg/mL
COC(=O)/N=N/C(=O)OC,BACTEC,,MIC bound,,H37Rv,,>12.5 µg/mL
Nc1ccc(Nc2ccc(O)cc2)c(S(=O)(=O)O)c1,,,MIC,,H37Rv,,100 µg/mL
Cc1cn2c(C(=O)NCc3ccc(N4CCC(Oc5cccc(C(F)(F)F)c5)CC4)c(F)c3)c(C)nc2s1,resazurin / fluorescence,,MIC,,H37Rv,,<0.39 µM
O=C1NC(=S)N/C1=C\c1ccc(O)cc1,BACTEC,,EC50,,H37Rv,,>6.25 µg/mL
C=C(OCC)c1nc2c(Cl)ncnc2n1Cc1ccccc1,BACTEC,,EC50,,H37Rv,,>12.5 µg/mL
CCCCOc1ccc(NC(=S)Nc2ccc(OCCN(CC)CC)cc2)cc1,,,MIC,,76,,62.5 µg/mL
CCC(C)C(NC(=O)C(Cc1c[nH]c2ccccc12)NC(=O)OC(C)(C)C)C(=O)NN,BACTEC,,MIC bound,,H37Rv,,>12.5 µg/mL
Cc1cc(C(=O)/C=C/c2ccc(F)cc2)ccc1O,,,MIC,,H37Rv,,>6.25 µg/mL
CCCCCCCCOc1cccc(NC(=O)OCCN(C)C)c1,,,MIC,,My 331/88,,8 µM
COc1ccc2c(c1)[n+]([O-])c(/C(C)=N/NC(=O)c1ccccc1O)c(C)[n+]2[O-],BACTEC,,MIC bound,,H37Rv,,≤12.5 µg/mL
CN(C)C(=O)/C=C/C(=O)N(C)C,,,MIC,,H37Rv,,>100 µg/mL
CCCOc1ccc(NC(=O)OCCN2CCCCCC2)cc1,,,MIC,,My 331/88,,125 µM
COc1ccc2ccccc2c1/C=N/NC(N)=O,,,MIC,,H37Rv,,>100 µg/mL
N[C@@H]1CONC1=O,agar,,EC50,,35 strains,,<20 µg/mL
CO[C@H]1/C=C/O[C@@]2(C)Oc3c(C)c(O)c4c(O)c(c(/C=N/N5CCN(C6CCCC6)CC5)c(O)c4c3C2=O)NC(=O)/C(C)=C\C=C\[C@H](C)[C@H](O)[C@@H](C)[C@@H](O)[C@@H](C)[C@H](OC(C)=O)[C@@H]1C,,,MIC,,L402,,0.05 µg/mL
Clc1nc(-c2ccccc2)c2ncn(Cc3ccccc3)c2n1,BACTEC,,EC50,,H37Rv,,<12.5 µg/mL
CC(C)COC(=O)c1ccc(NC(=O)CCC(=O)O)cc1O,,,MIC,,H37Rv,,>20 µg/mL
C=C[C@]1(C)C=C2C(=C)C3(C)OC[C@@]4(CCCC(C)(C)C34)[C@@]2(O)[C@H](O)C1,broth dilution,,MIC90,,,,3.1 µg/mL
C/C=C/C(=O)NS(=O)(=O)c1cc(N)ccc1S(=O)(=O)c1ccc(N)cc1,,,MIC,,H37Rv,,>100 µg/mL
Nc1ccc(C(=O)O)c(O)c1,agar,,inhibition,,592 strains,2 µg/mL,89%
Cn1c(=O)nc2n(-c3ccc(Cl)cc3)c3ccc(Cl)cc3nc-2c1=O,BACTEC,,MIC bound,,H37Rv,,>12.5 µg/mL
CO/N=C(\C(=O)N[C@@H]1C(=O)N2C(C(=O)O)=CCS[C@H]12)c1csc(N)n1,,,MIC50,,26 strains,,64 µg/mL
CN1[C@@H]2C[C@H]3C[C@H]1[C@H](O)[C@H]2O3,BACTEC,,inhibition,,H37Rv,12.5 µg/mL,6%
O=C1NC(=S)N/C1=C/c1cccc2ccccc12,BACTEC,,EC50,,H37Rv,,>6.25 µg/mL
O=C(O)CCCCC1CCCCC1,,,MIC,,H37Rv,,100 µg/mL
CO[C@H]1/C=C/O[C@@]2(C)Oc3c(C)c(O)c4c(O)c(c(/C=N/N5CCN(C)CC5)c(O)c4c3C2=O)NC(=O)/C(C)=C\C=C\[C@H](C)[C@H](O)[C@@H](C)[C@@H](O)[C@@H](C)[C@H](OC(C)=O)[C@@H]1C,resazurin / absorbance,,MIC,inhA mutant isoniazid resistant,HUG.MB.6726,,0.001 µg/mL
CC(=O)c1nc(/C=C/c2ccccc2)c2ncn(Cc3ccccc3)c2n1,BACTEC,,EC50,,H37Rv,,<12.5 µg/mL
CCOC(=O)/C(C#N)=C/C=C(\C)CCC=C(C)C,,,MIC,,H37Rv,,>100 µg/mL
O=C(Nc1cccc2c1C(=O)c1cccc(Nc3ccc(NC(=O)c4ccccc4)c4c3C(=O)c3ccccc3C4=O)c1C2=O)c1ccccc1,BACTEC,,MIC bound,,H37Rv,,>12.5 µg/mL
O=C(O)c1ccc([N+](=O)[O-])cc1I,,,MIC,,H37Rv,,50 µg/mL
Nc1ccc(C(=O)Oc2ccccc2)c(O)c1,,,MIC,,H37Rv,,0.0156 µg/mL
O=C1NC(=S)N/C1=C/c1ccc2c(c1)OCO2,BACTEC,,inhibition,,H37Rv,6.25 µg/mL,0%
O=S(=O)([O-])c1cc(Cl)cc(Cc2cc(Cl)cc(S(=O)(=O)[O-])c2O)c1O.[Na+].[Na+],BACTEC,,inhibition,,H37Rv,12.5 µg/mL,0%
O=P(c1ccccc1)(c1ccccc1)c1ccccc1,,,MIC,,H37Rv,,>100 µg/mL
Cc1cn2c(C(=O)NCc3ccc(N4CCC(c5ccc(OC(F)(F)F)cc5)CC4)cc3)c(C)nc2s1,resazurin / fluorescence,,MIC,QcrB1 A317V,H37Rv,,0.2 µM
CC1CC=C(C(=O)O)CC1,,,MIC,,H37Rv,,100 µg/mL
NC(=O)c1cnccn1,,,MIC,,Isolate 97-578,,900 µg/mL
Cc1cc(C)c(NCCC(C)C)c(C)c1,,,MIC,,H37Rv,,>100 µg/mL
CCOc1c(N=Nc2ccc(Cl)cc2)c(-c2ccccc2)nn1C(=S)S,BACTEC,,MIC bound,,H37Rv,,>12.5 µg/mL
OCCNc1nc(Cl)nc(NCCO)n1,,,MIC,,H37Rv,,>100 µg/mL
CC1SC2=NC3=C(c4ccccc4C3=O)C(c3ccc(F)cc3)N2C1=O,BACTEC,,MIC bound,,H37Rv,,>12.5 µg/mL
CC(C)OC(=O)c1ccc(NC(=O)CCC(=O)O)cc1O,,,MIC,,H37Rv,,>20 µg/mL
COc1ccc(-n2c(-c3ccc(C(C)C)cc3)cc(CN3CCOCC3)c2C)cc1,,,MIC90,,H37Rv,,23.82 µM
O=C(CCCCCCCC(=O)Nc1cc(C2=NCCN2)cc(C2=NCCN2)c1)Nc1cc(C2=NCCN2)cc(C2=NCCN2)c1,resazurin,,inhibition,,H37Rv,6.25 µg/mL,76%
Nc1nc(C#Cc2ccccc2)c2ncn(Cc3ccccc3)c2n1,BACTEC,,EC50,,H37Rv,,<12.5 µg/mL
C[P+]1(C)CCc2c1ccc1ccccc21,,VERO,MIC,,H37Rv,,>6.25 µg/mL
COc1ccccc1C(=O)CC(=O)Nc1ccc(NS(=O)(=O)c2ccc(C)cc2)cc1Cl,,,MIC,,H37Rv,,100 µg/mL
O=C(N/N=C/c1cccnc1)C(O)C(O)C(O)C(O)CO,BACTEC,,MIC bound,,H37Rv,,>12.5 µg/mL
COc1ccc(/C=C/C(=O)c2ccc(O)c(C)c2)cc1OC,,,MIC,,H37Rv,,>6.25 µg/mL
Cc1ccc(O)cc1,,,MIC,,H37Rv,,100 µg/mL
COc1cc(/C=C/C(=O)c2ccc(O)c(C)c2)cc(OC)c1OC,,,MIC,,H37Rv,,>6.25 µg/mL
O=C1N(C2CCCCC2)CC2C(c3cccnc3)NNC12O,BACTEC,,MIC,,H37Rv,,≥12.8 µg/mL
O=C(O)c1ccc([N+](=O)[O-])o1,,,MIC,,H37Rv,,>100 µg/mL
Cc1cn2c(C(=O)NCc3ccc(N(C)C)cc3)c(C)nc2s1,luminescence,,MIC,,H37Rv,,21.5 µM
Cc1cccc(OC(=O)c2ccc(NC(=O)/C=C\C(=O)O)cc2O)c1,,,MIC,,H37Rv,,0.125 µg/mL
CCCCCCOc1cccc(NC(=O)OCCN2CCOCC2)c1,,,MIC,,My 331/88,,32 µM
Brc1c2ccccc2cc2c1ccc1ccccc12,,,MIC,,H37Rv,,>100 µg/mL
O=C1NC(=S)N/C1=C/c1ccc2ccccc2c1,BACTEC,,EC50,,H37Rv,,<6.25 µg/mL
Cc1coc(NS(=O)(=O)c2ccc(N=Nc3c(N)nc(N)nc3N)cc2)c1C,BACTEC,,inhibition,,H37Rv,12.5 µg/mL,-8%
Cc1cn2c(C(=O)NCc3ccc(N4CCC5(CC4)OCC(C)CO5)cc3)c(C)nc2s1,resazurin / fluorescence,,MIC,,H37Rv,,0.621 µM
CNn1cc(C(=O)O)c(=O)c2cc(F)c(N3CCN(C)CC3)cc21,,,MIC50,,19 strains,,6.2 µg/mL
C/C(=N\Nc1ccc2ccccc2n1)c1ccccn1,BACTEC,,MIC,,H37Rv,,≥12.5 µg/mL
CCc1cc(C(N)=S)ccn1,agar,,EC50,,25 strains,,<10 µg/mL
C=Cc1ncnc2c1ncn2Cc1ccccc1,BACTEC,,EC50,,H37Rv,,>12.5 µg/mL
C[N+](C)(C)CC(=O)N/N=C/c1ccc([N+](=O)[O-])o1,BACTEC,,MIC bound,,H37Rv,,≤12.5 µg/mL
CCOC(=O)c1c(C)n(C)c(C)c(C(=O)OCC)c1=O,,,MIC,,H37Rv,,>100 µg/mL
Cc1ccc(-c2cc(CN3CCOCC3)c(C)n2-c2ccc(F)cc2)cc1,,,MIC,V681I V581A N365S,H37Rv DR4,,5.4 µM
Nc1ccc(-c2ccccc2-c2ccccc2)cc1,,,MIC,,H37Rv,,>100 µg/mL
CCCc1ccc(-c2cc(CN3CCOCC3)c(C)n2-c2ccc(OC)cc2)cc1,,,MIC90,,H37Rv,,28.82 µM
O=C(O)c1ccccc1-c1ccccc1C(=O)O,,,MIC,,H37Rv,,50 µg/mL
O=c1c2ccccc2nc(-c2ccccc2)n1-c1nnc(C(F)(F)F)s1,BACTEC,,inhibition,,H37Rv,12.5 µg/mL,99%
CCc1ccc(-n2c(-c3ccc(Cl)cc3)cc(CN3CCOCC3)c2C)cc1,,,MIC90,,H37Rv,,16.83 µM
O=C(Nc1ccc(Cl)cc1)c1ccccc1,,,MIC,,H37Rv,,>100 µg/mL
CC(C)c1ccc(/C=C2/NC(=S)NC2=O)cc1,BACTEC,,EC50,,H37Rv,,<6.25 µg/mL
COC1=C(C(C)C)C(=O)C2=C(C1=O)C1(C)CCCC(C)(C)C1=CC2OC(C)=O,broth dilution,,MIC90,,,,0.98 µg/mL
C(=C\c1nc(-c2ccccc2)nc2c1ncn2Cc1ccccc1)/c1ccccc1,BACTEC,,EC50,,H37Rv,,<12.5 µg/mL
NNC(=O)c1ccncc1,,,MIC,,H37RV #301,,<0.5 µg/mL
O=C1NC(=S)N/C1=C/c1cccc(Oc2ccccc2)c1,BACTEC,,inhibition,,H37Rv,6.25 µg/mL,78%
CCOc1cccc(NC(=O)OCC[NH+]2CCCC2)c1,,,MIC,,My 331/88,,1000 µM
O=C1c2ccccc2-c2nc3ccccc3n21,resazurin,,inhibition,,H37Rv,6.25 µg/mL,20%
Cc1cc(C2=NNC(c3ccccc3Cl)C2)ccc1O,,,MIC,,H37Rv,,>6.25 µg/mL
COC(=O)c1cc(-c2ccccc2)c2c(=O)n(-c3ccccc3)[nH]c2n1,BACTEC,,inhibition,,H37Rv,12.5 µg/mL,3%
CCc1ccc(-c2cc(CN3CCOCC3)c(C)n2-c2ccc(F)cc2)cc1,,,MIC,Q40R,H37Rv DR7,,0.16 µM
CN(C)CCNc1cccc2c1C(=O)c1cccc(NCCN(C)C)c1C2=O,BACTEC,,inhibition,,H37Rv,12.5 µg/mL,24%
O=C1NC(=S)N/C1=C\c1c(Cl)cccc1Cl,BACTEC,,EC50,,H37Rv,,>6.25 µg/mL
CC(=O)OCC1=CC(=O)O[C@@H]1C/C=C(/CC/C=C(\C)CCC1=C(C)CCCC1(C)C)COC(C)=O,broth dilution,,MIC90,,,,26 µg/mL
CCOc1ccc(NC(=S)Nc2ccc(OCC(C)C)cc2)cc1,,,MIC,,H37RV #164,,2 µg/mL